From article doi:10.1101/2025.10.29.685445 (bioRxiv, 2025)

B1: H501-008 IgG (antibody, V domains shown)
VH: QVQLVQSGGGVVQPGRSLRLSCAVSGFTLDRYAMHWVRQAPGKALEWVALMSADGREQYYAESVKGRFTFSRDSSKNTLYLQMHNLRTDDSSVYFCAREGPMYYDAWSGRSYYNNYALDVWGRGTTVAVSS
VL: QSVLTQPPSVSAAPGQTVTISCSGSSSNIGDNYVSWYQQVPGTAPRLLVYDNNRRPLGIPDRFSGSKSGTSATLAIAGLQTGDEADYYCGTWDSSLSAGVFGGGTKLTVV
notes: also called H501–08; mAb H501–008; copies: 2 + 2
B2: H501-008 Fab (Fab, V domains shown)
VH: B1 VH
VL: B1 VL
notes: also called H501–08 Fab

Columns and labels:
HCoV-OC43 S-2P = target: T1, HCoV-OC43 S-2P (HCoV-OC43, spike GenBank AIL49484, UniProt A0A0B4N7I3, stabilised); experiment: ELISA; conditions: both partners purified
T1 construct: also called soluble HCoV-OC43 S; source: Expi293F, transfected, purified from supernatant (HisTrap, Superdex)

[1] = target: HCoV-OC43 S, full-length, cell surface-expressed (HCoV-OC43, spike GenBank AIL49484, UniProt A0A0B4N7I3); experiment: cell-based or functional assay
[2] = target: T2, HCoV-OC43 S1-CTD (residues 318-608), Fc- and His-tagged (HCoV-OC43, spike GenBank AIL49484, UniProt A0A0B4N7I3); experiment: SPR; conditions: both partners purified
T2 construct: also called HCoV-OC43 RBD; not shown: Fc-tag, C-terminal, kept; 8X HisTag, C-terminal, kept

Binder | binding result (HCoV-OC43 S-2P) | IC50 of neutralisation of authentic HCoV-OC43 virus on Huh7 cells [1] [µg/mL] | Kd [2] [nM]
B1 | binds | > 10 | –
B2 | – | – | ~25
